PubChem BioAssay AID1259414 – Drosophila RNAi Screening Center – 2018

- Screen: 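Host factors increasing or decreasing Wolbachia levels in cultured fly cells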 (primary screen)
- Cells: Drosophila JW18 cells infected with Wolbachia
- Reagents: long dsRNA against Drosophila genes, 0.25 µg dsRNA per well of a 384-well plate
- Duration: 5 days
- Challenge: cells persistently infected with Wolbachia before knock-down; no added drug
- Measurement: 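Automated imaging of bacterial rRNA staining divided by host cell count, reported as plate-normalised robust z-score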
- Scale: Wolbachia per cell robust z: higher = more Wolbachia per host cell than the plate typical
- Hit rule: 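Hit when robust z is 1.5 or more, or -1.5 or less, in at least two of three replicates; excludes dsRNAs with several or no targets, genes not expressed in JW18 and well A1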
The screen tested about 24,000 reagents; shown is a random part of those that have a named target and a result. Of all reagents, about 1,210 (5%) got an active call. 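Inactive calls also include excluded dsRNAs with several or no targets, genes unexpressed in JW18, and well A1, regardless of score.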 Unmarked entries are inactive. Reagents against one gene are numbered here. A plus sign joins genes that one reagent is predicted to hit. Reagent sequences are not shown.

The first 7 entries, ahead of the listing:
target gene	reagent no.	Wolbachia per cell robust z, rep 1	Wolbachia per cell robust z, rep 2	Wolbachia per cell robust z, rep 3
Prosalpha2	1	0.628	2.73	1.07
Prosalpha2	2	2.06 (active)	1.89	1.58
CG3803	1	0.256	-2.88	0.0826
ChT	1	2.6	0	-2.44
CG33012	1	0.802	0.395	0.821
CG33012	2	1.96	0.186	0.49
Ak1	1	-0.5	-0.874	-0.81

The listing, from the first entry:
target gene	reagent no.	Wolbachia per cell robust z, rep 1	Wolbachia per cell robust z, rep 2	Wolbachia per cell robust z, rep 3
Prosalpha2	1	0.628	2.73	1.07
Prosalpha2	2	2.06 (active)	1.89	1.58
CG3803	1	0.256	-2.88	0.0826
ChT	1	2.6	0	-2.44
CG33012	1	0.802	0.395	0.821
CG33012	2	1.96	0.186	0.49
Ak1	1	-0.5	-0.874	-0.81
Ak1	2	-0.0124	0.231	0.529
Ak1	3	1.23 (active)	-1.93	-1.84
CR33222 + CR11386	1	0.4	-0.157	-2.1
CR33222 + CR11386	2	0.615	0.0356	0.595
CG33235	1	0.169	-1.85	-0.565
Tango1	1	1.11	0.317	0.899
Tango1	2	-0.235	-0.21	-0.0328
Tmtc1	1	-1.27	-1.46	-0.497
Cdk1	1	5.61 (active)	6.41	7.26
Cdk1	2	0.994	1.6	0.851
CG12567	1	1.49	1	-0.541
CG34210	1	-0.178	-0.863	-0.905
CG34210	2	-0.731	0.261	0.878
p24-1	1	-3.08	0.295	0.289
p24-1	2	-0.229	0.256	1.69
stw	1	0.58	0.71	-6.03
stw	2	-0.783	1.37	0.622
stw	3	0.68	0.483	-0.504
stw	4	0.0304	-0.323	0.63
CG7963	1	0.019	-0.579	1.05
sob	1	-6.11	1.18	-7.56
sob	2	0.998	0.926	0.913
Yeti	1	0.258	-0.726	0.164
PK2-R1	1	-0.317	-0.462	0.214
PK2-R1	2	-1.65	-0.187	-0.546
IP3K1	1	-1.86 (active)	-0.319	-4.67
mRpS6	1	-3.1	0.205	-1.41
mRpS6	2	-0.955	-1.68	-1.02
myo	1	0.33	-0.549	0.214
CG8539	1	-0.868	-0.419	-0.662
CG8539	2	-0.448	-0.571	-0.859
CG8539	3	-0.173	0.135	-0.971
Top3alpha	1	0.797	1.36	1.17
CG4465	1	1.51	1.04	-0.316
CG17841	1	0.156	-2.25	0.991
CG17841	2	0.225	0.333	-2.25
CG15403	1	0.876	-0.0252	-0.599
nol	1	-1.34	0.68	0.154
nol	2	-0.0711	0.654	0.922
mEFTu2	1	-0.421	-4.22	0.145
Pmi + PGRP-LD	1	-0.746	0.467	-1.38
Pmi + PGRP-LD	2	0.424	-0.48	0.672
Mcm6	1	-0.359	-0.541	0.26
Mcm6	2	-0.914	0.00855	0.153
ago	1	0.135	0.444	1.16
Cpr49Ae	1	0.542	0.82	0.0845
Cpr49Ae	2	0.558	-2.37	-0.869
Lap1	1	-1.47	-0.617	0.285
crb	1	0.351	0.245	-0.134
crb	2	-0.339	1.06	0.0743
BomT2	1	0.517	-3.58	-0.321
BomT2	2	-1.2	0.126	0.323
egr	1	-2.99 (active)	0.516	-2.24
Ypel	1	1.47	1.28	1.2
Ypel	2	0.886	1.5	-5.88
CG13506	1	-0.169	-5.89	1.14
CG8160	1	-4.86	-3.43	-3.58
CG8160	2	0.0748	1.34	0.847
CG8160	3	0.632	-0.0688	0.832
CG13177	1	-0.306	0.102	0.799
CG13177	2	-3.56 (active)	-0.485	-2.51
